# Measured values from US9181310B2 (priority 2003, dated 2015).
# Test system: Xanthomonas citri
# Conditions: in vivo
molecule,measurement,value
"BombBC: Bacteriophage Outer Membrane Breaching protein of Xanthomonas phage P15 (Xp15) ORF BC, 17.9 kD, SEQ ID NO. 17 (protein, listed as Xanthomonas campestris) MSDQTDTTQTTPAEKAPPKEIIRGRMPIAVVALARFGSQSTTTTKAAADALGTTVGKIDDIRKNRNFAYVTADFKPTEAQKADGIEWLKRHPVGADALIEELQNLPVATAEESAAFEQVRASARGQNAKTAEGEVAQAGGGNRRKKKEKPAEAGEVQNPPAADGDSLLS",numbers of pustules,many fewer
same,pathogenic symptoms caused by X. citri,greatly reduced
same,size of the pustules,pustules remained tiny and were much less well developed
